Data source: PubChem BioAssay AID1259414 (Drosophila RNAi Screening Center, 2018)
Purpose: 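Host factors increasing or decreasing Wolbachia levels in cultured fly cells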 (primary screen). System: Drosophila JW18 cells infected with Wolbachia. Reagent: long dsRNA against Drosophila genes, 0.25 µg dsRNA per well of a 384-well plate. Timing: 5 days. Treatment: cells persistently infected with Wolbachia before knock-down; no added drug. Detection: 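Automated imaging of bacterial rRNA staining divided by host cell count, reported as plate-normalised robust z-score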. Reading the numbers: Wolbachia per cell robust z: higher = more Wolbachia per host cell than the plate typical. Hit rule: 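Hit when robust z is 1.5 or more, or -1.5 or less, in at least two of three replicates; excludes dsRNAs with several or no targets, genes not expressed in JW18 and well A1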.
The screen tested about 24,000 reagents; this is a random part of those with a known target gene and a result. Over the whole deposit, about 1,210 (5%) were called active. 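Inactive calls also include excluded dsRNAs with several or no targets, genes unexpressed in JW18, and well A1, regardless of score.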 No sequences are given here.

{"gene knocked down":"CG14006","amplicon":"DRSC02338","Wolbachia per cell robust z, rep 1":-1.86,"Wolbachia per cell robust z, rep 2":-1.46,"Wolbachia per cell robust z, rep 3":1.04,"Call":"inactive"}
{"gene knocked down":"Polr2L (RNA polymerase II, I and III subunit L)","amplicon":"DRSC14630","Wolbachia per cell robust z, rep 1":-0.0982,"Wolbachia per cell robust z, rep 2":-2.07,"Wolbachia per cell robust z, rep 3":1.74,"Call":"inactive"}
{"gene knocked down":"CG14743","amplicon":"DRSC06479","Wolbachia per cell robust z, rep 1":0.00146,"Wolbachia per cell robust z, rep 2":0.254,"Wolbachia per cell robust z, rep 3":0.317,"Call":"inactive"}
{"gene knocked down":"CG3526","amplicon":"DRSC17240","Wolbachia per cell robust z, rep 1":0.361,"Wolbachia per cell robust z, rep 2":0.0688,"Wolbachia per cell robust z, rep 3":1.38,"Call":"inactive"}
{"gene knocked down":"CG3526","amplicon":"DRSC18636","Wolbachia per cell robust z, rep 1":-0.393,"Wolbachia per cell robust z, rep 2":0.221,"Wolbachia per cell robust z, rep 3":0.501,"Call":"inactive"}
{"gene knocked down":"CG3526","amplicon":"DRSC24423","Wolbachia per cell robust z, rep 1":-0.484,"Wolbachia per cell robust z, rep 2":0.22,"Wolbachia per cell robust z, rep 3":-0.191,"Call":"inactive"}
{"gene knocked down":"Mnr (Membrane-bound Notch regulator)","amplicon":"DRSC20549","Wolbachia per cell robust z, rep 1":-0.649,"Wolbachia per cell robust z, rep 2":-0.775,"Wolbachia per cell robust z, rep 3":-1.04,"Call":"inactive"}
{"gene knocked down":"Mnr (Membrane-bound Notch regulator)","amplicon":"DRSC20550","Wolbachia per cell robust z, rep 1":0.566,"Wolbachia per cell robust z, rep 2":-3.16,"Wolbachia per cell robust z, rep 3":0.00915,"Call":"inactive"}
{"gene knocked down":"Mnr (Membrane-bound Notch regulator)","amplicon":"DRSC22441","Wolbachia per cell robust z, rep 1":0.804,"Wolbachia per cell robust z, rep 2":-6.69,"Wolbachia per cell robust z, rep 3":-0.46,"Call":"inactive"}
{"gene knocked down":"olf413","amplicon":"DRSC11543","Wolbachia per cell robust z, rep 1":-0.959,"Wolbachia per cell robust z, rep 2":-0.293,"Wolbachia per cell robust z, rep 3":-0.511,"Call":"inactive"}
{"gene knocked down":"olf413","amplicon":"DRSC11679","Wolbachia per cell robust z, rep 1":0.564,"Wolbachia per cell robust z, rep 2":2.01,"Wolbachia per cell robust z, rep 3":1.26,"Call":"inactive"}
{"gene knocked down":"olf413","amplicon":"DRSC11721","Wolbachia per cell robust z, rep 1":0.59,"Wolbachia per cell robust z, rep 2":-0.172,"Wolbachia per cell robust z, rep 3":0.625,"Call":"inactive"}
{"gene knocked down":"olf413","amplicon":"DRSC11833","Wolbachia per cell robust z, rep 1":1.4,"Wolbachia per cell robust z, rep 2":0.258,"Wolbachia per cell robust z, rep 3":0.942,"Call":"inactive"}
{"gene knocked down":"Kap-alpha3 (karyopherin alpha3)","amplicon":"DRSC16976","Wolbachia per cell robust z, rep 1":-0.94,"Wolbachia per cell robust z, rep 2":-1.51,"Wolbachia per cell robust z, rep 3":-1.01,"Call":"inactive"}
{"gene knocked down":"Kap-alpha3 (karyopherin alpha3)","amplicon":"DRSC40862","Wolbachia per cell robust z, rep 1":-0.0467,"Wolbachia per cell robust z, rep 2":0.619,"Wolbachia per cell robust z, rep 3":0.951,"Call":"inactive"}
{"gene knocked down":"ND-MLRQ (NADH dehydrogenase (ubiquinone) MLRQ subunit)","amplicon":"DRSC11913","Wolbachia per cell robust z, rep 1":-1.11,"Wolbachia per cell robust z, rep 2":-0.719,"Wolbachia per cell robust z, rep 3":-0.0467,"Call":"inactive"}
{"gene knocked down":"Dci (Dodecenoyl-CoA delta-isomerase)","amplicon":"DRSC08360","Wolbachia per cell robust z, rep 1":0.69,"Wolbachia per cell robust z, rep 2":-0.763,"Wolbachia per cell robust z, rep 3":-0.529,"Call":"inactive"}
{"gene knocked down":"Dci (Dodecenoyl-CoA delta-isomerase)","amplicon":"DRSC28929","Wolbachia per cell robust z, rep 1":1.09,"Wolbachia per cell robust z, rep 2":0.416,"Wolbachia per cell robust z, rep 3":0.258,"Call":"inactive"}
{"gene knocked down":"Tep5Psi (Thioester-containing protein 5 pseudogene)","amplicon":"DRSC02183","Wolbachia per cell robust z, rep 1":-0.423,"Wolbachia per cell robust z, rep 2":-1.32,"Wolbachia per cell robust z, rep 3":-0.196,"Call":"inactive"}
{"gene knocked down":"Tep5Psi (Thioester-containing protein 5 pseudogene)","amplicon":"DRSC02184","Wolbachia per cell robust z, rep 1":0.428,"Wolbachia per cell robust z, rep 2":0.125,"Wolbachia per cell robust z, rep 3":0.0202,"Call":"inactive"}

Continued (3 carried over from the part before).
{"gene knocked down":"Dci (Dodecenoyl-CoA delta-isomerase)","amplicon":"DRSC28929","Wolbachia per cell robust z, rep 1":1.09,"Wolbachia per cell robust z, rep 2":0.416,"Wolbachia per cell robust z, rep 3":0.258,"Call":"inactive"}
{"gene knocked down":"Tep5Psi (Thioester-containing protein 5 pseudogene)","amplicon":"DRSC02183","Wolbachia per cell robust z, rep 1":-0.423,"Wolbachia per cell robust z, rep 2":-1.32,"Wolbachia per cell robust z, rep 3":-0.196,"Call":"inactive"}
{"gene knocked down":"Tep5Psi (Thioester-containing protein 5 pseudogene)","amplicon":"DRSC02184","Wolbachia per cell robust z, rep 1":0.428,"Wolbachia per cell robust z, rep 2":0.125,"Wolbachia per cell robust z, rep 3":0.0202,"Call":"inactive"}
{"gene knocked down":"CheB42c (Chemosensory protein B 42c)","amplicon":"DRSC04972","Wolbachia per cell robust z, rep 1":-1.66,"Wolbachia per cell robust z, rep 2":0.166,"Wolbachia per cell robust z, rep 3":-1.04,"Call":"inactive"}
{"gene knocked down":"CheB42c (Chemosensory protein B 42c)","amplicon":"DRSC27357","Wolbachia per cell robust z, rep 1":-5.57,"Wolbachia per cell robust z, rep 2":-1.46,"Wolbachia per cell robust z, rep 3":-6.73,"Call":"active"}
{"gene knocked down":"CG14053","amplicon":"DRSC17908","Wolbachia per cell robust z, rep 1":0.192,"Wolbachia per cell robust z, rep 2":0.68,"Wolbachia per cell robust z, rep 3":-1.1,"Call":"inactive"}
{"gene knocked down":"Ssl (Suppressor of Stellate-like)","amplicon":"DRSC04657","Wolbachia per cell robust z, rep 1":0.187,"Wolbachia per cell robust z, rep 2":0.144,"Wolbachia per cell robust z, rep 3":1.1,"Call":"inactive"}
{"gene knocked down":"Ssl (Suppressor of Stellate-like)","amplicon":"DRSC26276","Wolbachia per cell robust z, rep 1":0.849,"Wolbachia per cell robust z, rep 2":0.452,"Wolbachia per cell robust z, rep 3":0.0373,"Call":"inactive"}
{"gene knocked down":"Ssl (Suppressor of Stellate-like)","amplicon":"DRSC41399","Wolbachia per cell robust z, rep 1":-2.29,"Wolbachia per cell robust z, rep 2":-0.535,"Wolbachia per cell robust z, rep 3":0.852,"Call":"inactive"}
{"gene knocked down":"PIG-Wa (Phosphatidylinositol glycan anchor biosynthesis class W a)","amplicon":"DRSC00728","Wolbachia per cell robust z, rep 1":0.659,"Wolbachia per cell robust z, rep 2":0.0804,"Wolbachia per cell robust z, rep 3":-6.46,"Call":"inactive"}
{"gene knocked down":"GNBP1 (Gram-negative bacteria binding protein 1)","amplicon":"DRSC11169","Wolbachia per cell robust z, rep 1":-0.488,"Wolbachia per cell robust z, rep 2":0.239,"Wolbachia per cell robust z, rep 3":-0.356,"Call":"inactive"}
{"gene knocked down":"GNBP1 (Gram-negative bacteria binding protein 1)","amplicon":"DRSC21836","Wolbachia per cell robust z, rep 1":-1.57,"Wolbachia per cell robust z, rep 2":-2.45,"Wolbachia per cell robust z, rep 3":-0.255,"Call":"active"}
{"gene knocked down":"CG4842","amplicon":"DRSC10453","Wolbachia per cell robust z, rep 1":-0.197,"Wolbachia per cell robust z, rep 2":0.0309,"Wolbachia per cell robust z, rep 3":-0.136,"Call":"inactive"}
